The text below walks through data of ChEMBL document CHEMBL5131509, “Design, synthesis and biological evaluations of niclosamide analogues against SARS-CoV-2” (Eur J Med Chem, 2022).

Molecules are shown by their SMILES.

Data set [1] is described as follows: Stability of compound in human plasma at 100 uM by HPLC analysis. Type of data set: ADME, cell-free. The note with it: read-out: Stability.
Data set [2] can be described thus: Metabolic stability of the compound in human liver microsomes S9 fraction preincubated with NADPH for 10 mins followed by compound addition at 50 uM measured upto 360 mins by HPLC analysis. Type of data set: ADME, subcellular. Particulars: read-out: Stability. On the technique in general: Microsomes from liver hold many membrane-bound enzymes, among them those of drug oxidation.

Consider `O=C(Nc1ccc([N+](=O)[O-])cc1Cl)c1cc(Cl)ccc1O` [NICLOSAMIDE], for which, in data set [1], the remaining at 100 µM was 40%. In data set [2], the remaining at 6 h, 50 µM came to 27%.
